Pooled drug test results. Numbers come from NIAID ChemDB, via PubChem.

Common to all: growth or infection tests; organism: HIV-1; read-out: EC50

ECn: concentration that inhibits the pathogen or its effect by n%.

smiles,conditions,changes,read by,strain or isolate,cell line,result
CSCCC(NC(=S)NC(=O)CCCN1C(=O)c2ccccc2C1=O)C(=O)O,,,MTT,IIIB,MT-4,>78.22 µM
Cc1cn([C@@H]2O[C@H](COC(=S)N(C)C)C3(OS(=O)(=O)C=C3N)[C@H]2O[Si](C)(C)C(C)(C)C)c(=O)n(C)c1=O,,,,,CEM + CEM/0,>10 µM
COc1c(C(=O)/C=C(/C)Nc2ccccc2)c(O)c(S(=O)(=O)Oc2ccc([N+](=O)[O-])cc2)c2occc12,,,cytopathic effect / MTS,RF,CEM-SS,0.000072 µM
C[C@H]1O[C@](C#CC2CC2)(C(F)(F)F)c2cc(F)ccc2NC1=O,,,,RF,MT-2,<0.194 µM
O=C1NC(=NCCc2ccc(F)cc2)S/C1=C\c1ccc(-c2ccc(C(=O)O)c(O)c2)o1,pseudotyped,,β-galactosidase,,TZM-bl,3.9 µM
COc1ccc(OS(=O)(=O)c2c3occc3c(OC)c3c(=O)cc(C)oc23)cc1,,,cytopathic effect / MTS,RF,CEM-SS,0.000077 µM
COc1cc(Cc2cnc(/N=C3\C(=O)N(CN4CCN(c5ccccn5)CC4)c4ccc(C)cc43)nc2N)cc(OC)c1OC,,,cytopathic effect,,CEM,>121 µM
N#Cc1cc2ccc(O[C@@H]3CCNC3)cc2n(-c2ccc([N+](=O)[O-])cc2)c1=O,,,GFP / reporter gene,IIIB,MT-4,1.25 µM
NC(N)=NCCC[C@H](N)C(=O)NC[C@@H]1OC(O[C@H]2[C@@H](O)[C@H](O[C@@H]3[C@@H](O)[C@H](NC(=O)[C@@H](N)CCCN=C(N)N)C[C@H](NC(=O)[C@@H](N)CCCN=C(N)N)[C@H]3O[C@H]3O[C@H](CNC(=O)[C@@H](N)CCCN=C(N)N)[C@@H](O)[C@H](O)[C@H]3NC(=O)[C@@H](N)CCCN=C(N)N)O[C@@H]2CO)[C@H](NC(=O)[C@@H](N)CCCN=C(N)N)[C@@H](O)[C@@H]1O,,,p24 / RT activity,C (syncytium-inducing),MT-2,1.8 µM
COC(=O)c1ccc(NC(=O)COc2cccnc2-c2cccc3ccccc23)cc1,,,MTT / absorbance,IIIB,MT-4,>64.9 µM
COc1ccc(N/C(C)=C\C(=O)c2c(O)c(S(=O)(=O)Oc3ccc([N+](=O)[O-])cc3)c3occc3c2OC)cc1,,,MTT,IIIB,MT-4,0.00004 µM
C=C(Cl)COc1cc(NC(=S)c2ccoc2C)ccc1Cl,,,syncytia,IIIB,CEM,0.047 µg/mL
C=C1CN(S(=O)(=O)c2ccc(C)cc2)CCCN(C(C)=O)CCCN(S(=O)(=O)c2ccc(C)cc2)C1,,,p24,NL4-3,MT-4,>75 µM
CN1CCN(c2nc(-c3cccs3)cc(-c3cccs3)n2)CC1,,,RT activity,LAV,PBMC,21.1 µM
O=C1CO[C@](C#Cc2ccccc2)(C(F)(F)F)c2cc(Cl)ccc2N1,,,,RF,MT-2,<0.0243 µM
COc1ccc(NC(=O)c2ccoc2C)cc1OCC=C(Cl)Cl,,RT-V106A,syncytia,Nevirapine-resistant isolate (RT V106A),CEM,2 µg/mL
CCc1ccc(CCN=C2NC(=O)/C(=C/c3ccc(-c4ccc(C(=O)O)c(O)c4)o3)S2)cc1,,,β-galactosidase,NL4-3,TZM-bl,1 µM
CC(C)[C@@H]1O[C@](C#CC2CC2)(C(F)(F)F)c2cc(Cl)ccc2NC1=O,,,,RF,MT-2,<0.0207 µM
CC1=C(C(=O)Nc2ccc(Cl)c(OCC=C(Cl)Cl)c2)SCCO1,,RT-K103N,syncytia,TIBO R82913-resistant (RT K103N),CEM,2 µg/mL
COC(=O)C(Cc1ccccc1)NC(=O)CCCN1C(=O)c2ccccc2C1=O,,,MTT,IIIB,MT-4,>37.82 µM
COc1c(-c2cc(C)n(-c3ccccc3)n2)c(O)c(S(=O)(=O)Oc2ccc(F)cc2)c2occc12,,,cytopathic effect / MTS,RF,CEM-SS,0.000028 µM
CN(C)CCSc1nccc(-c2cccs2)n1,,,RT activity,LAV,PBMC,25.5 µM
C[C@@H]1O[C@](/C=C/C2CC2)(C(F)(F)F)c2cc(F)ccc2NC1=O,,RT-K103N,,,,<0.118 µM
O=c1[nH]c(=O)n(Cc2cn(COCCO)nn2)cc1F,,,cytopathic effect,IIIB,MT-4,>100 µg/mL
Cc1sccc1C(=O)Nc1ccc(Cl)c(OCC=C(Cl)Cl)c1,,RT-Y188H,syncytia,HEPT-resistant (RT Y188H),CEM,2 µg/mL
COC(=O)c1ccc(NC(=O)COc2cccnc2-c2cccc3ccccc23)c([N+](=O)[O-])c1,,,MTT / absorbance,IIIB,MT-4,>62 µM
CN1CCN(Cc2ccc(-c3cccc(-c4ccc(CN5CCN(C)CC5)cc4)n3)cc2)CC1,,,RT activity,LAV,PBMC,22 µM
C[C@H](Cn1cnc2c(N)ncnc21)OCP(=O)(O)O,,HX/3AZT,,,TZM-bl,5.8 µM
CN1CCN(CCSc2nc(-c3cc4ccccc4s3)c3ccccc3n2)CC1,,,RT activity,LAV,PBMC,6.1 µM
O=C(CCCN1C(=O)c2ccccc2C1=O)NC(=S)NC(Cc1ccc(O)cc1)C(=O)O,,,MTT,IIIB,MT-4,>37.82 µM
C#CCn1cc(I)c(=O)[nH]c1=O,,,cytopathic effect,IIIB,MT-4,>100 µg/mL
COc1cc(Cc2cnc(/N=C3\C(=O)N(CN4CCN(c5c(OC)cc6c(c5F)c(=O)c(C(=O)O)cn6C5CC5)CC4C)c4ccc(C)cc43)nc2N)cc(OC)c1OC,,,cytopathic effect,,MT-4,21.2 µM
COc1c2ccoc2c(S(=O)(=O)OC2CCCCC2)c2oc(C)cc(=O)c12,,,cytopathic effect / MTS,RF,CEM-SS,0.000089 µM
O=C(COc1cccnc1-c1cccc2ccccc12)Nc1cccnc1Cl,,,MTT / absorbance,RES056,MT-4,>179 µM
COC(=O)C(C)NC(=O)CCCN1C(=O)c2ccccc2C1=O,,,MTT,IIIB,MT-4,>101 µM
Nc1ccn([C@H]2CC[C@@H](CO)O2)c(=O)n1,,L100I,MTT,,MT-4,0.33 µM
CC(=O)NCc1cccc(-c2ccc3c(N)c(C#N)c(=O)n(-c4ccc(C)c(C#N)c4)c3c2)c1,,,GFP / reporter gene,IIIB,MT-4,7.05 µM
CC(=O)OCC1=C[C@@H]2C(=O)[C@]3(C=C(C)[C@H](OC(C)=O)[C@@]3(O)[C@@H]1OC(C)=O)[C@H](C)C[C@@H]1[C@H]2C1(C)C,,,cytopathic effect / MTT,HE,MT-4,0.099 µM
COc1c(-c2cc(C)n(-c3ccccc3)n2)c(O)c(S(=O)(=O)Oc2ccc([N+](=O)[O-])cc2)c2occc12,,,cytopathic effect / MTS,RF,CEM-SS,0.000029 µM
O=C1Nc2ccc(Cl)cc2[C@@](/C=C/C2CC2)(C(F)(F)F)N1,,RT-K103N,,,,<0.027 µM
COc1c(C(=O)/C=C(/C)Nc2ccc(Cl)cc2)c(O)c(S(=O)(=O)OC2CCCC2)c2occc12,,,MTT,IIIB,MT-4,0.000043 µM
O=C1NC(=NCCc2ccccc2)S/C1=C\c1ccc(-c2ccc(C(=O)O)c(O)c2)o1,,,β-galactosidase,NL4-3,TZM-bl,0.8 µM
C=C1CN(S(=O)(=O)c2ccc(C)cc2)CCCN(Cc2ccccn2)CCCN(S(=O)(=O)c2ccc(C)cc2)C1,,,p24,NL4-3,MT-4,>75 µM
Cc1ccc(-c2ncccc2OCC(=O)Nc2ccc(C(N)=O)cc2)cc1,,,MTT / absorbance,IIIB,MT-4,>105 µM
COc1cc(Cc2cnc(/N=C3\C(=O)N(CN4CCN(c5ccc([N+](=O)[O-])cc5)CC4)c4ccc(C)cc43)nc2N)cc(OC)c1OC,,,cytopathic effect,,MT-4,>47.96 µM
Cc1cn([C@H]2C[C@H](N=[N+]=[N-])[C@@H](CO)O2)c(=O)[nH]c1=O,,,p24 / ELISA / antigen,,C8166,0.04655 µM
CCOCn1c(Cc2ccccc2)c(C(C)C)c(=O)[nH]c1=O,,,antigen,IIIB,MT-4,0.005 µM
NS(=O)(=O)c1ccc(NC(=O)COc2cccnc2-c2cccc3ccccc23)cc1,,,MTT / absorbance,RES056,MT-4,>143 µM
CNCCCOc1ccc2cc(C#N)c(=O)n(-c3ccc([N+](=O)[O-])cc3)c2c1,,,GFP / reporter gene,IIIB,MT-4,0.23 µM
COc1c(-c2cc(C)on2)c(O)c(S(=O)(=O)Oc2ccc([N+](=O)[O-])cc2)c2occc12,,,MTT,IIIB,MT-4,0.000031 µM
CC(=O)OC[C@H]1O[C@@H](n2cc(C)c(=O)n(C)c2=O)[C@H](O[Si](C)(C)C(C)(C)C)C12OS(=O)(=O)C=C2N,,,,,CEM + CEM/0,17.5 ± 3.5 µM
C=C1CN(S(=O)(=O)c2ccc(C)cc2)CCCN(Cc2ccccc2)CCCN(S(=O)(=O)c2ccc(C)cc2)C1,,,,WEJO,PBMC,2 µM
CN(C)CCSc1cccc(-c2cc(-c3cccc(SCCN(C)C)c3)nc(SCCN(C)C)n2)c1,,,RT activity,LAV,PBMC,6.2 µM
CC(=O)c1ccc(C)cc1NC(C(N)=O)c1c(Cl)cccc1Cl,,,flow cytometry,IIIB,CEM,0.004 µM
CN(C)CCNc1nc(-c2cccs2)cc(-c2cccs2)n1,,,RT activity,LAV,PBMC,0.5 µM
O=C1NC(=NCc2ccc(Cl)cc2)S/C1=C\c1ccc(-c2ccc(C(=O)O)c(O)c2)o1,,,β-galactosidase,AD8,TZM-bl,4.3 µM
Cc1ccc(S(=O)(=O)N2CCCN(Cc3ccccc3)CCCN(S(=O)(=O)c3ccc(C)cc3)CCC2)cc1,,,p24,NL4-3,MT-4,>15 µM
COc1cc(Cc2cnc(/N=C3\C(=O)N(CN4CCN(c5cccc(C(F)(F)F)c5)CC4)c4ccc(C)cc43)nc2N)cc(OC)c1OC,,,cytopathic effect,,CEM,>118 µM
CCO[C@@H]1Cc2cc(C(F)(F)F)ccc2C1N1CCN(C2(C)CCN(C(=O)c3c(C)ncnc3C)CC2)C[C@@H]1C,,,p24,IIIB,PBMC,>1 µM
COc1c(C(=O)/C=C(/C)Nc2ccc([N+](=O)[O-])cc2)c(O)c(S(=O)(=O)OC2CCCCC2)c2occc12,,,cytopathic effect / MTS,RF,CEM-SS,0.000071 µM
COC(=O)C(CO)NC(=O)CCCN1C(=O)c2ccccc2C1=O,,,MTT,IIIB,MT-4,>96.11 µM
C#CCn1cc(Cl)c(=O)[nH]c1=O,,,cytopathic effect,IIIB,MT-4,>100 µg/mL
CN1c2ccccc2C2C1C=C(C#N)C(=O)N2c1ccc([N+](=O)[O-])cc1,,,GFP / fluorescence,7295-1,HeLa,0.08 µM
CC(=O)c1ccc(C)cc1N[C@@H](C(N)=O)c1c(Cl)cccc1Cl,,,cytopathic effect / MTT,IIIB,MT-4,2.1 µM
O=C(COc1cccnc1-c1cccc2ccccc12)Nc1ccc(C(F)(F)F)cc1,,,MTT / absorbance,IIIB,MT-4,>11.7 µM
C=C1O[C@@H](n2cc(C)c(=O)n(C)c2=O)[C@H](O[Si](C)(C)C(C)(C)C)[C@]12OS(=O)(=O)C=C2N,,,,,CEM + CEM/0,3 µM
CC[C@@H]1O[C@](C#CC2CC2)(C(F)(F)F)c2cc(F)ccc2NC1=O,,RT-K103N,,,,<0.117 µM
CC(=O)Nc1nc2c(ncn2Cc2cn(COCCO)nn2)c(=O)[nH]1,,,cytopathic effect,IIIB,MT-4,>100 µg/mL
COc1ccc(NC(=S)c2ccsc2C)cc1OCC=C(Cl)Cl,,RT-Y181C,syncytia,Pyridone-resistant (RT Y181C),CEM,0.13 µg/mL
C=C1CN(S(=O)(=O)c2ccc(C)cc2)CCCN(C(C)CC)CCCN(S(=O)(=O)c2ccc(C)cc2)C1,,,p24,NL4-3,MT-4,3.52 µM
COc1cc(Cc2cnc(/N=C3\C(=O)N(CN4CCN(c5ccccc5)CC4)c4ccc(C)cc43)nc2N)cc(OC)c1OC,,,cytopathic effect,,MT-4,>116.1 µM
CC(=O)OCCOCn1cc(Cn2cc(Br)c(=O)[nH]c2=O)nn1,,,cytopathic effect,IIIB,MT-4,>100 µg/mL
CCNc1c(C#N)c(=O)n(-c2ccc([N+](=O)[O-])cc2)c2ccccc12,,,GFP / reporter gene,IIIB,MT-4,32.4 µM
Cc1cn(Cc2cn(COCCO)nn2)c(=O)[nH]c1=O,,,cytopathic effect,IIIB,MT-4,>100 µg/mL
Cc1cn([C@@H]2O[C@H](CN3CCNCC3)C3(OS(=O)(=O)C=C3N)[C@H]2O[Si](C)(C)C(C)(C)C)c(=O)n(C)c1=O,,,,,MT-4,≥50 µM
N#CC1=CC2Nc3ccccc3C2N(c2ccc([N+](=O)[O-])cc2)C1=O,,,GFP / fluorescence,B-HXB2,MT-4,0.25 µM
CC(=O)c1ccc(NC(=O)COc2cccnc2-c2cccc3ccccc23)cc1,,,MTT / absorbance,IIIB,MT-4,>8.23 µM

Repeating the final 9 entries:

| smiles | conditions | changes | read by | strain or isolate | cell line | result |
|---|---|---|---|---|---|---|
| COc1ccc(NC(=S)c2ccsc2C)cc1OCC=C(Cl)Cl |  | RT-Y181C | syncytia | Pyridone-resistant (RT Y181C) | CEM | 0.13 µg/mL |
| C=C1CN(S(=O)(=O)c2ccc(C)cc2)CCCN(C(C)CC)CCCN(S(=O)(=O)c2ccc(C)cc2)C1 |  |  | p24 | NL4-3 | MT-4 | 3.52 µM |
| COc1cc(Cc2cnc(/N=C3\C(=O)N(CN4CCN(c5ccccc5)CC4)c4ccc(C)cc43)nc2N)cc(OC)c1OC |  |  | cytopathic effect |  | MT-4 | >116.1 µM |
| CC(=O)OCCOCn1cc(Cn2cc(Br)c(=O)[nH]c2=O)nn1 |  |  | cytopathic effect | IIIB | MT-4 | >100 µg/mL |
| CCNc1c(C#N)c(=O)n(-c2ccc([N+](=O)[O-])cc2)c2ccccc12 |  |  | GFP / reporter gene | IIIB | MT-4 | 32.4 µM |
| Cc1cn(Cc2cn(COCCO)nn2)c(=O)[nH]c1=O |  |  | cytopathic effect | IIIB | MT-4 | >100 µg/mL |
| Cc1cn([C@@H]2O[C@H](CN3CCNCC3)C3(OS(=O)(=O)C=C3N)[C@H]2O[Si](C)(C)C(C)(C)C)c(=O)n(C)c1=O |  |  |  |  | MT-4 | ≥50 µM |
| N#CC1=CC2Nc3ccccc3C2N(c2ccc([N+](=O)[O-])cc2)C1=O |  |  | GFP / fluorescence | B-HXB2 | MT-4 | 0.25 µM |
| CC(=O)c1ccc(NC(=O)COc2cccnc2-c2cccc3ccccc23)cc1 |  |  | MTT / absorbance | IIIB | MT-4 | >8.23 µM |

Rows are shuffled and stem from different studies. Blank or dashed fields: not listed here.